{"source": "PubChem BioAssay AID1259414 – Drosophila RNAi Screening Center – 2018", "purpose": "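Host factors increasing or decreasing Wolbachia levels in cultured fly cells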 (primary screen)", "cell system": "Drosophila JW18 cells infected with Wolbachia", "knock-down reagent": "long dsRNA against Drosophila genes, 0.25 µg dsRNA per well of a 384-well plate", "timing": "5 days", "conditions": "cells persistently infected with Wolbachia before knock-down; no added drug", "detection": "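Automated imaging of bacterial rRNA staining divided by host cell count, reported as plate-normalised robust z-score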", "scale": "Wolbachia per cell robust z: higher = more Wolbachia per host cell than the plate typical", "call rule": "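Active if absolute robust z reaches 1.5 in two or more of three replicates, leaving out multi- or no-target dsRNAs, genes unexpressed in JW18 and A1 wells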", "note": "The deposit covers about 24,000 reagents; shown is an unselected part of those with a known target gene and a result. Of all reagents, about 1,210 (5%) are marked active. 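Inactive calls also include excluded dsRNAs with several or no targets, genes unexpressed in JW18, and well A1, regardless of score.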 Reagent sequences are not shown."}
{"gene": "Art4", "dsRNA": "DRSC15779", "Wolbachia per cell robust z, rep 1": 0.00377, "Wolbachia per cell robust z, rep 2": -2.59, "Wolbachia per cell robust z, rep 3": 0.519, "activity call": "inactive"}
{"gene": "Pgk", "dsRNA": "DRSC23340", "Wolbachia per cell robust z, rep 1": -3.14, "Wolbachia per cell robust z, rep 2": -0.35, "Wolbachia per cell robust z, rep 3": -0.61, "activity call": "inactive"}
{"gene": "Pgk", "dsRNA": "DRSC26595", "Wolbachia per cell robust z, rep 1": 0.659, "Wolbachia per cell robust z, rep 2": 1.55, "Wolbachia per cell robust z, rep 3": 0.227, "activity call": "inactive"}
{"gene": "CG3764", "dsRNA": "DRSC10375", "Wolbachia per cell robust z, rep 1": -2.73, "Wolbachia per cell robust z, rep 2": -0.708, "Wolbachia per cell robust z, rep 3": -1.85, "activity call": "active"}
{"gene": "CG14451", "dsRNA": "DRSC11708", "Wolbachia per cell robust z, rep 1": 0.477, "Wolbachia per cell robust z, rep 2": -0.415, "Wolbachia per cell robust z, rep 3": -1.25, "activity call": "inactive"}
{"gene": "CG14451", "dsRNA": "DRSC26512", "Wolbachia per cell robust z, rep 1": 0.0322, "Wolbachia per cell robust z, rep 2": -0.368, "Wolbachia per cell robust z, rep 3": -1.3, "activity call": "inactive"}
{"gene": "tefu", "dsRNA": "DRSC16060", "Wolbachia per cell robust z, rep 1": -0.479, "Wolbachia per cell robust z, rep 2": -0.1, "Wolbachia per cell robust z, rep 3": -2.66, "activity call": "inactive"}

Continued; the last 2 above are carried over.
{"gene": "CG14451", "dsRNA": "DRSC26512", "Wolbachia per cell robust z, rep 1": 0.0322, "Wolbachia per cell robust z, rep 2": -0.368, "Wolbachia per cell robust z, rep 3": -1.3, "activity call": "inactive"}
{"gene": "tefu", "dsRNA": "DRSC16060", "Wolbachia per cell robust z, rep 1": -0.479, "Wolbachia per cell robust z, rep 2": -0.1, "Wolbachia per cell robust z, rep 3": -2.66, "activity call": "inactive"}
{"gene": "CG13285", "dsRNA": "DRSC09960", "Wolbachia per cell robust z, rep 1": -0.385, "Wolbachia per cell robust z, rep 2": -1.16, "Wolbachia per cell robust z, rep 3": 0.459, "activity call": "inactive"}
{"gene": "elg1", "dsRNA": "DRSC10229", "Wolbachia per cell robust z, rep 1": 0.286, "Wolbachia per cell robust z, rep 2": -0.226, "Wolbachia per cell robust z, rep 3": -0.713, "activity call": "inactive"}
{"gene": "elg1", "dsRNA": "DRSC27844", "Wolbachia per cell robust z, rep 1": 0.812, "Wolbachia per cell robust z, rep 2": 0.646, "Wolbachia per cell robust z, rep 3": 0.725, "activity call": "inactive"}
{"gene": "elg1", "dsRNA": "DRSC41605", "Wolbachia per cell robust z, rep 1": 0.248, "Wolbachia per cell robust z, rep 2": 1.31, "Wolbachia per cell robust z, rep 3": 1.2, "activity call": "inactive"}
{"gene": "CG15370", "dsRNA": "DRSC23277", "Wolbachia per cell robust z, rep 1": 0.815, "Wolbachia per cell robust z, rep 2": 0.593, "Wolbachia per cell robust z, rep 3": 0.865, "activity call": "inactive"}
{"gene": "CG15370", "dsRNA": "DRSC29703", "Wolbachia per cell robust z, rep 1": 0.422, "Wolbachia per cell robust z, rep 2": 1.49, "Wolbachia per cell robust z, rep 3": 0.403, "activity call": "inactive"}
